System: Plasmodium falciparum
Assay: Antiplasmodial activity against erythrocytic stage of chloroquine-sensitive Plasmodium falciparum 3D7 assessed as inhibition of parasite growth incubated for 3 days by HRP2-ELISA assay

C1CCC2(CC1)OOC1(CCCCC1)OO2
IC50: 0.0219 µM

Reference: ChEMBL document CHEMBL5247624, “N-sulfonylpiperidinedispiro-1,2,4,5-tetraoxanes exhibit potent in vitro antiplasmodial activity and in vivo efficacy in mice infected with P. berghei ANKA” (Eur J Med Chem, 2022)
